{"source": "paper PMC4801485", "origin": "cited, not measured here", "target": "HIV capsid protein capsid domain (Human immunodeficiency virus 1) (UniProt O93182)", "data": [{"substance": "Cyclophilin A (from UniProt P62937)", "values": [{"measurement": "Kd", "value": 16, "unit": "µM"}]}]}
